According to paper PMC10189885, “Transcription activation by the resistance protein AlbA as a tool to evaluate derivatives of the antibiotic albicidin” (Chemical Science, 2023):
Values after ≈ are worked out from the molar mass of the structure shown.

Test system: S. Typhimurium TA100
Assay: MIC determination (microdilution)
Format: cell-based
Details: Salmonella enterica, MHBII, 37 °C, 20 h
Method: E. coli growth inhibition assay
liquid culture were conducted.
All assays were set up in triplicates.
scanner (Epson) with argusX.
overnight at 37 °C, 200 rpm shaking.
95 μL of the inoculum were applied
Previously, the dry antibiotic compounds were
The antimicrobial effect of the solvent
Both microdilution trays and agar plates
DNA-Gyrase inhibition testing
The final DMSO concentration was 3%.
AlbA and its mutants were diluted in […]

SMILES	MIC
CC(C)Oc1c(NC(=O)c2ccc(NC(=O)[C@H](Cc3c[nH]nn3)NC(=O)c3ccc(NC(=O)c4ccc(C#N)cc4)cn3)cn2)ccc(C(=O)Nc2ccc(C(=O)O)cc2)c1O [Compound 11]	0.016 µg/mL (≈ 0.0191 µM)
COc1c(NC(=O)c2ccc(NC(=O)c3ccc(NC(=O)[C@H](Cc4c[nH]nn4)NC(=O)c4ccc(C#Cc5ccc(C#N)cc5)cc4)cn3)c(OC)c2O)ccc(C(=O)O)c1O [Compound 10]	≤ 0.016 µg/mL
